From patent US11197904B2, “Pharmaceutical compositions for preventions and managements of dementia, infectious diseases, cancers, periodontitis, dental caries, diabetes, obesity, osteoporosis and chronic pain and methods thereof” (Chung Shan Medical University, priority 2018, dated 2021) come the findings set out here.

Assay [1] concerns Porphyromonas gingivalis (P.g.). As to the kind of experiment: Proliferation of cultured Porphyromonas gingivalis (OD600, 24 h). As to conditions: single agent.
For assay [2], the system named is Streptococcus mutans (S.m., UA159). As to the kind of experiment: Proliferation of cultured Streptococcus mutans UA159 (OD600, 24 h). As to conditions: single agent.

In the case of NaF, the “IC50, 50% inhibition on bacterial proliferation, P. g.” value in assay [1] is 666 µg/mL. Besides, in assay [2], the “IC50, 50% inhibition on bacterial proliferation, UA159” value came to 10 µg/mL.
